One sequence from PMC6899631, “An essential pentatricopeptide repeat protein in the apicomplexan remnant chloroplast” can be followed below.

The target of this series is T1, PfPPR1 (tag removed) (UniProt Q8IM30).
T1 sequence (looked up): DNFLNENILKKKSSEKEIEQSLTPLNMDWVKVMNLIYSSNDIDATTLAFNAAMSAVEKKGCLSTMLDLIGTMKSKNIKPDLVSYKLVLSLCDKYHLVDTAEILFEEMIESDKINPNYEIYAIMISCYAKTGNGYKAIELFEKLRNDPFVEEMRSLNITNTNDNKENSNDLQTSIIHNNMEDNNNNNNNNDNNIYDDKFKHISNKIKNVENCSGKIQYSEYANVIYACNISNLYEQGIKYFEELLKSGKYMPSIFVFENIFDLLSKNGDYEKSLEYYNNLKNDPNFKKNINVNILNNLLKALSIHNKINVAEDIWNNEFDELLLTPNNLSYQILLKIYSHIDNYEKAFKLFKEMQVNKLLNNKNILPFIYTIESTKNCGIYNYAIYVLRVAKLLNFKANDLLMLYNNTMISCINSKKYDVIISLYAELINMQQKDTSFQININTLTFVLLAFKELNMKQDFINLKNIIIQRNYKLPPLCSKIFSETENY
The experiment in a line: pull-down. The following applies: TRX tag removed; Pull-down: 10 mM HEPES pH 7.5, 20 mM KCl, 1 mM MgCl2, 1 mM DTT, room temperature 15 min; 400 nM biotinylated RNA, 800 nM protein (Results state 1:1 molar); recombinant protein; residues 121-608; label: 3' biotin (pull-down).

Construct, isoform or probe ends are uncertain for at least one entry. At least one verdict rests on a figure or table, not on a statement of the authors. Protein sequences can lack the tags named with them.

As to ACGACAUUAUAAGGUCGGA [RNA oligo 2], the binding result is given as “binds”.
